Reference: patent publication US6365625B1, “Compound for inhibiting HIV infectivity” (Procept, Inc., priority 1993, dated 2002)

System: CEM-T4 human T-lymphocyte cell line
Conditions: PIC 024.4 30% polymer by weight

O=c1[nH]cnc2c1ncn2[C@H]1CC[C@@H](CO)O1 [ddI, 2′,3′-Dideoxyinosine]
Cytotoxicity TD50, CEM-T4 (IIIB): >25 µg/mL
